Values from PubChem BioAssay AID504761 (Drosophila RNAi Screening Center, 2011).
In all, the deposit lists about 22,000 reagents; below is an unselected part of those with a known target gene and a result. Of all reagents, 116 (0.52%) got an active call. 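Calls depend on retest data that are not deposited; infection was ranked per plate without normalising between plates; the unit of the infection score is not given.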 The raw values are shown without normalisation. Reagents against one gene are numbered here. Names joined by + are all predicted targets of the reagent. Not all columns of the deposit are shown. Not given: the amount of reagent, the time to read-out.

Screen: 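Genome-wide fly cell screen for genes dengue virus requires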 (primary screen)
Cell system: D.Mel-2 cells from Drosophila
Reagents: long dsRNA against Drosophila genes
Challenge: infection with dengue virus type 2; dose and infection time not stated
Detection: 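Cells stained for dengue envelope protein and imaged; percent of infected cells per well on duplicate plates, ranked by infection, with stained nuclei counted for cell number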
Reading the numbers: infection score: higher = more virus-infected cells; cell count: higher = more cells in the well
Call rule: 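Low infection ranks in the two replicates (chance level up to 0.065) followed by a retest with a 1.5-fold or larger significant decrease, p below 0.05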
Meaning of the calls: active = confirmed: knock-down lowers infection; inactive = not picked or not confirmed

With CG14500, what does the deposit list?
infection score, replicate 1: 5.05; cell count, replicate 1: 2656; call: inactive

For Obp58b (Odorant-binding protein 58b), what was measured?
infection score, replicate 1: 3.36; cell count, replicate 1: 745; call: inactive

For Unc-115b + p24-2 + Unc-115a, what does the deposit list?
infection score, replicate 1: 1.42; cell count, replicate 1: 6276; call: inactive

With Hsp27 (Heat shock protein 27) #1, how do the results read?
infection score, replicate 1: 12; cell count, replicate 1: 5872; call: inactive

What did the screen give for Hsp27 (Heat shock protein 27) #2?
infection score, replicate 1: 2.9; cell count, replicate 1: 6493; call: inactive

With C901 #1, what does the deposit list?
infection score, replicate 1: 0.55; cell count, replicate 1: 6499; call: inactive

With C901 #2, what was measured?
infection score, replicate 1: 1.27; cell count, replicate 1: 395; call: inactive

How did the screen score CG6337 #1?
infection score, replicate 1: 6.29; cell count, replicate 1: 6643; call: inactive

Which result is listed for CG6337 #2?
infection score, replicate 1: 10.9; cell count, replicate 1: 6293; call: inactive

What did the screen give for bocks (bocksbeutel)?
infection score, replicate 1: 7.26; cell count, replicate 1: 6719; call: inactive

With IFT52 (Intraflagellar transport 52) #1, what was measured?
infection score, replicate 1: 4.26; cell count, replicate 1: 6218; call: inactive

With IFT52 (Intraflagellar transport 52) #2, how do the results read?
infection score, replicate 1: 12.6; cell count, replicate 1: 3098; call: inactive

For bt (bent) #1, what was measured?
infection score, replicate 1: 1.77; cell count, replicate 1: 6387; call: inactive

Which result is listed for bt (bent) #2?
infection score, replicate 1: 1.81; cell count, replicate 1: 6469; call: inactive

Records listed so far whose gene name starts with I or i (2):
IFT52 (Intraflagellar transport 52) #1 → infection score, replicate 1: 4.26; cell count, replicate 1: 6218; call: inactive
IFT52 (Intraflagellar transport 52) #2 → infection score, replicate 1: 12.6; cell count, replicate 1: 3098; call: inactive
